According to publication PMC2596486 (PLoS ONE, 2008):

Target: HA2 subunit of H5 rHA (band on the reducing immunoblot) (Influenza A virus …, UniProt A5A5M5, strain)
Assay: far-Western, overlay or dot blot
Conditions: one partner purified

B1: CR6323 human IgG1 (antibody, V domains shown)
VH: EVQLVESGAEVKKPGSSVKVSCKASGGTFSSYGISWVRQAPGQGLEWMGDIIGMFGSTNYAQNFQGRLTITADESTSTAYMELSSLRSEDTAVYYCARSSGYYPAYLPHWGQGTLVTVSS
VL: not shown
binding result: binds
